Source: article PMC5374441 (Scientific Reports, 2017)

Sequences of proteins named here, by UniProt entry; tags and fusion partners are left off. Residues count along the entry.
UniProt P36544, 23-502 limits assumed: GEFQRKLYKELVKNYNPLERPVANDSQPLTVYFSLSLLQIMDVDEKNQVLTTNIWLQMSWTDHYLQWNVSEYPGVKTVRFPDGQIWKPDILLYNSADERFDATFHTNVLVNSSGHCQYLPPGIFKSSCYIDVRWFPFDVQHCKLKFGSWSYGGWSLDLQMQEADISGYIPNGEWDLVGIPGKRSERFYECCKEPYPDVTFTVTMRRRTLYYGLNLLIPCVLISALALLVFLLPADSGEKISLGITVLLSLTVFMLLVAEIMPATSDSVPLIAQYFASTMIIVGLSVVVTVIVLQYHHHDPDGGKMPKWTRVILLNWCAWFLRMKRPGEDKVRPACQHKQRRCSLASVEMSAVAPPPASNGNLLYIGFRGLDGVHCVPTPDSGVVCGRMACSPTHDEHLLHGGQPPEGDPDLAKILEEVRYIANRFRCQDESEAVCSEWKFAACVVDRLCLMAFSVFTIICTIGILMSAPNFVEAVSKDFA
UniProt P30926, 22-498 limits assumed: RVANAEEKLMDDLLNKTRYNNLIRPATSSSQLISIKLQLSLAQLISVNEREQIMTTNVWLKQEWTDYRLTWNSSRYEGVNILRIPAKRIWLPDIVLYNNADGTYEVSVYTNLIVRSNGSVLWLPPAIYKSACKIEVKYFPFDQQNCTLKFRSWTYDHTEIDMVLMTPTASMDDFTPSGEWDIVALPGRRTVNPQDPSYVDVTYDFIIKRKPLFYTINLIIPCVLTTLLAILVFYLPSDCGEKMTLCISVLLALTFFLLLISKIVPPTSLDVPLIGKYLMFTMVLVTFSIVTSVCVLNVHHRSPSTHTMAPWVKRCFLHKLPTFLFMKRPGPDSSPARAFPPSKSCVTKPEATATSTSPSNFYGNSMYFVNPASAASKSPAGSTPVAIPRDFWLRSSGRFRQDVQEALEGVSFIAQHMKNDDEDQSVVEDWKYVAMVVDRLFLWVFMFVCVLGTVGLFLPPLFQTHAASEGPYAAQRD
UniProt P32297, 32-505 limits assumed: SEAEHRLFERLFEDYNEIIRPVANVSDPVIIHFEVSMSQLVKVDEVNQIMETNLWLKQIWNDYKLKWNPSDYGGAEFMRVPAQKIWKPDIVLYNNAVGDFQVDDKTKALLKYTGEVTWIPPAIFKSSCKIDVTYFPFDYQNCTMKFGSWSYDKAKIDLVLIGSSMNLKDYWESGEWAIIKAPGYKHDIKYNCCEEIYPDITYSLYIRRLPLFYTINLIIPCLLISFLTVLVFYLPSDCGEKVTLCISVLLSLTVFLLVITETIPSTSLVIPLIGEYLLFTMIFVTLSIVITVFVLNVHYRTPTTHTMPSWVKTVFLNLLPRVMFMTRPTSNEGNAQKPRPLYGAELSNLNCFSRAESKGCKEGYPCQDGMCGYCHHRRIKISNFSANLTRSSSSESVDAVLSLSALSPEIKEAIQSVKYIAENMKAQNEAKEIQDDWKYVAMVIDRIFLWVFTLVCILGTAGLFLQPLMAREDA

How the values were obtained:
human α7 nAChR = human α7 nAChR (Homo sapiens, UniProt P36544); experiment: FLIPR calcium assay, choline-activated α7 nAChR in SH-SY5Y cells; type: cell-based
human α3β4 nAChR = human α3β4 nAChR (Homo sapiens, UniProt P30926+P32297); experiment: FLIPR calcium assay, nicotine-activated α3β4 nAChR in SH-SY5Y cells; type: cell-based; details: for selectivity for α3β4 over α7 nAChR: ratio of potencies at α7 and α3β4 in SH-SY5Y cells

Row | SMILES | IC50 (human α7 nAChR) [nM] | IC50 (human α3β4 nAChR) [nM] | selectivity for α3β4 over α7 nAChR (human α3β4 nAChR; FLIPR calcium) [fold] | activity at α3β4 (in words) (human α3β4 nAChR; SH-SY5Y cells, FLIPR calcium) | activity at α7 (in words) (human α7 nAChR; SH-SY5Y cells, FLIPR calcium)
1 | CC[C@H](C)[C@@H]1NC(=O)[C@H](CC(N)=O)NC(=O)[C@@H]2CCCN2C(=O)[C@H](CC(N)=O)NC(=O)[C@H](CC(C)C)NC(=O)[C@H](C(C)C)NC(=O)[C@H](Cc2ccccc2)NC(=O)[C@@H]2CSSC[C@H](NC(=O)CNC(=O)[C@@H](N)CO)C(=O)N[C@@H](CSSC[C@@H](C(N)=O)NC1=O)C(=O)N[C@@H](CO)C(=O)N[C@@H](CC(N)=O)C(=O)N1CCC[C@H]1C(=O)N[C@@H](C)C(=O)N2 | > 100000 | 410 | > 250 | – | –
2 | CC[C@H](C)[C@@H]1NC(=O)[C@H](CC(N)=O)NC(=O)[C@@H]2CCCN2C(=O)[C@H](CC(N)=O)NC(=O)[C@H](CC(N)=O)NC(=O)[C@H](C(C)C)NC(=O)[C@H](CCCNC(=N)N)NC(=O)[C@@H]2CSSC[C@H](NC(=O)CNC(=O)[C@@H](N)CO)C(=O)N[C@@H](CSSC[C@@H](C(N)=O)NC1=O)C(=O)N[C@@H](CO)C(=O)N[C@@H](Cc1c[nH]cn1)C(=O)N1CCC[C@H]1C(=O)N[C@@H](C)C(=O)N2 | 40 | > 10000 | – | inactive | –
3 | CC[C@H](C)[C@@H]1NC(=O)[C@H](CC(N)=O)NC(=O)[C@@H]2CCCN2C(=O)[C@H](CC(N)=O)NC(=O)[C@H](CC(=O)O)NC(=O)[C@H](C(C)C)NC(=O)[C@H](CCCNC(=N)N)NC(=O)[C@@H]2CSSC[C@H](NC(=O)CNC(=O)[C@@H](N)CO)C(=O)N[C@@H](CSSC[C@@H](C(N)=O)NC1=O)C(=O)N[C@@H](CO)C(=O)N[C@@H](CC(N)=O)C(=O)N1CCC[C@H]1C(=O)N[C@@H](C)C(=O)N2 [N12D-LsIA] | > 10000 | > 10000 | – | – | –
4 | CC[C@H](C)[C@@H]1NC(=O)[C@H](CC(N)=O)NC(=O)[C@@H]2CCCN2C(=O)[C@H](CC(N)=O)NC(=O)[C@H](CC(C)C)NC(=O)[C@H](C(C)C)NC(=O)[C@H](CCCNC(=N)N)NC(=O)[C@@H]2CSSC[C@H](NC(=O)CNC(=O)[C@@H](N)CO)C(=O)N[C@@H](CSSC[C@@H](C(N)=O)NC1=O)C(=O)N[C@@H](CO)C(=O)N[C@@H](CC(N)=O)C(=O)N1CCC[C@H]1C(=O)N[C@@H](C)C(=O)N2 [N12L-LsIA] | 25700 | 630 | 40 | – | –
5 | CC[C@H](C)[C@@H]1NC(=O)[C@H](CC(N)=O)NC(=O)[C@@H]2CCCN2C(=O)[C@H](CC(N)=O)NC(=O)[C@H](CCC(N)=O)NC(=O)[C@H](C(C)C)NC(=O)[C@H](CCCNC(=N)N)NC(=O)[C@@H]2CSSC[C@H](NC(=O)CNC(=O)[C@@H](N)CO)C(=O)N[C@@H](CSSC[C@@H](C(N)=O)NC1=O)C(=O)N[C@@H](CO)C(=O)N[C@@H](CC(N)=O)C(=O)N1CCC[C@H]1C(=O)N[C@@H](C)C(=O)N2 [N12Q-LsIA] | 980 | > 10000 | – | – | –
6 | CC[C@H](C)[C@@H]1NC(=O)[C@H](CC(N)=O)NC(=O)[C@@H]2CCCN2C(=O)[C@H](CC(N)=O)NC(=O)[C@H](CC(N)=O)NC(=O)[C@H](C(C)C)NC(=O)[C@H](CC(=O)O)NC(=O)[C@@H]2CSSC[C@H](NC(=O)CNC(=O)[C@@H](N)CO)C(=O)N[C@@H](CSSC[C@@H](C(N)=O)NC1=O)C(=O)N[C@@H](CO)C(=O)N[C@@H](CC(N)=O)C(=O)N1CCC[C@H]1C(=O)N[C@@H](C)C(=O)N2 [R10D-LsIA] | > 10000 | > 10000 | – | – | inactive
7 | CC[C@H](C)[C@@H]1NC(=O)[C@H](CC(N)=O)NC(=O)[C@@H]2CCCN2C(=O)[C@H](CC(N)=O)NC(=O)[C@H](CC(N)=O)NC(=O)[C@H](C(C)C)NC(=O)[C@H](Cc2ccccc2)NC(=O)[C@@H]2CSSC[C@H](NC(=O)CNC(=O)[C@@H](N)CO)C(=O)N[C@@H](CSSC[C@@H](C(N)=O)NC1=O)C(=O)N[C@@H](CO)C(=O)N[C@@H](CC(N)=O)C(=O)N1CCC[C@H]1C(=O)N[C@@H](C)C(=O)N2 [R10F-LsIA] | – | 440 | – | – | –
8 | CC[C@H](C)[C@@H]1NC(=O)[C@H](CC(N)=O)NC(=O)[C@@H]2CCCN2C(=O)[C@H](CC(N)=O)NC(=O)[C@H](CC(N)=O)NC(=O)[C@H](C(C)C)NC(=O)[C@H](CCSC)NC(=O)[C@@H]2CSSC[C@H](NC(=O)CNC(=O)[C@@H](N)CO)C(=O)N[C@@H](CSSC[C@@H](C(N)=O)NC1=O)C(=O)N[C@@H](CO)C(=O)N[C@@H](CC(N)=O)C(=O)N1CCC[C@H]1C(=O)N[C@@H](C)C(=O)N2 [R10M-LsIA] | 2420 | 440 | 5 | – | –
